Results of unrelated studies side by side (data: NIAID ChemDB).

Common to all: tests in culture; organism: Mycobacterium tuberculosis

MIC50, MIC90 and the like: level of inhibition, or share of isolates inhibited. Inhibition is in % at the dose shown (toxicity tests: loss of growth or viability). ECn is the concentration giving n% inhibition of infection, replication or growth. Two numbers with a dash give a range or band. Neighbouring rows are from separate reports. MIC bound comes from a single tested concentration. Blank or dashed fields: not listed here.

compound,conditions,strain or isolate,tested at,method,cells,read-out,value
O=C1C[C@H](c2ccccc2)C2(C(=O)c3ccccc3C2=O)[C@@H](c2ccccc2)C1,-,H37Rv,12.5 µg/mL,BACTEC,-,inhibition,0%
N#Cc1cccc(CSc2ncn[nH]2)c1,-,My 331/88,-,-,-,MIC,1000 µM
CCC1CCC2(CC1)SC(C)C(=O)N2NC(=O)Cc1csc2nc(-c3ccc(Cl)cc3)cn12,-,H37Rv,6.25 µg/mL,-,VERO,inhibition,93%
Cn1cnnc1SCc1cccc(Br)c1,-,My 331/88,-,-,-,MIC,1000 µM
CC(=O)/C(N=Nc1ccc(C(=O)N/N=C/c2ccc([N+](=O)[O-])cc2)cc1)=C(\C)O,-,H37Rv,12.5 µg/mL,-,-,inhibition,13%
NC(=O)c1cncc(-n2cncn2)n1,-,Ethionamide-resistant,-,-,-,MIC,1000 µg/mL
CCCCOC(=O)c1cn(-c2cccnn2)nn1,-,H37Rv,6.25 µg/mL,-,-,inhibition,20%
Nc1n[nH]c(=O)c2cccnc12,-,H37Rv,-,BACTEC,-,MIC,≥12.5 µg/mL
NNC(=O)c1ccncc1,21 d,H37Rv,-,broth dilution / absorbance,-,MIC100,1 µM
CC(C)=CCc1c(-c2ccc(O)cc2O)oc2c3c(cc(O)c2c1=O)OC(C)(C)C=C3,-,H37Rv,12.5 µg/mL,BACTEC,-,inhibition,16%
O=C(c1ccncc1)N(/N=C/c1ccc(Cl)cc1Cl)C(=O)c1cnccn1,-,9 isolates (sensitive),-,-,-,MIC,>16 µg/mL
COC1/C=C\C=C(/C)C(=O)Nc2cc3nc4cccc(Br)c4oc-3c(c2=O)CC(C)CC(OC)C(O)C(C)/C=C(\C)C1OC(N)=O,-,H37Rv,-,BACTEC,-,MIC bound,≤12.5 µg/mL
O=C(CNc1ccccn1)Sc1nnc(-c2ccncc2)o1,-,H37Rv (ATCC 27294),-,broth dilution / resazurin,-,MIC99,5.77 µg/mL
CC1CN(c2cncc(C(N)=S)n2)CC(C)O1,-,Isoniazid-resistant,-,-,-,MIC,31.2 µg/mL
CCOC(=O)C(Sc1nc(N)c2c3c(sc2n1)CC(C(C)(C)C)CC3)C(C)C,-,H37Rv,-,MTT / visual reading,-,MIC,200 µg/mL
O=C(c1ccncc1)N(/N=C/c1cccc(Oc2ccccc2)c1)C(=O)c1cnccn1,-,9 isolates (resistant),-,-,-,MIC,>16 µg/mL
Oc1c(N=NC(=S)Nc2ccc(Br)cc2)c2cc(OC(F)(F)F)ccc2n1CN1CCOCC1,-,H37Rv,-,broth dilution / resazurin,-,EC90,3.034 µg/mL
CN(C)C(=O)CSc1nc(N)c2c3c(sc2n1)CC(C(C)(C)C)CC3,-,H37Rv,-,MTT / visual reading,-,MIC,>200 µg/mL
O=[N+]([O-])c1ccc(NC(=S)N=Nc2c(O)n(CN3CCOCC3)c3ccc(OC(F)(F)F)cc23)cc1,-,H37Rv,-,broth dilution / resazurin,-,EC90,>100 µg/mL
CCCOC(=O)c1cn(-c2cc(C)ccn2)nn1,-,H37Rv,6.25 µg/mL,-,-,inhibition,70%
CC1CCC/C(=N\NC(=O)Cc2csc3nc(-c4ccccc4)cn23)C1,-,H37Rv,6.25 µg/mL,-,-,inhibition,46%
C[C@]1(COc2ccc(N3CCC(Oc4ccc(OC(F)(F)F)cc4)CC3)cc2)Cn2cc([N+](=O)[O-])nc2O1,-,ATCC 35820 (H37RV-S-R),-,-,-,MIC,0.012 µg/mL
O=C([O-])[C@H]([O-])[C@@H]([O-])C(=O)[O-].O=C([O-])[C@H]([O-])[C@@H]([O-])C(=O)[O-].[Na+].[Na+].[Na+].[Na+].[O]=[V+2].[O]=[V+2],-,H37Rv,-,BACTEC,-,MIC bound,>12.5 µg/mL
Cn1cnnc1SCc1ccc(Cl)cc1,-,My 331/88,-,-,-,MIC,1000 µM
CC(=O)C1(C)C(=O)N(c2ccc(C)cc2)C(=O)N1c1ccc(C)cc1,-,H37Rv,-,BACTEC,-,MIC bound,>12.5 µg/mL
CCCCCCCNC(=O)Nc1ccc(S(=O)(=O)Nc2cc(C)on2)cc1,21 d,H37Rv,-,broth dilution / absorbance,-,MIC100,500 µM
CCNC(=S)N=Nc1c(O)[nH]c2ccc(C)cc12,-,H37Rv,-,broth dilution / resazurin,-,EC50,6.962 µg/mL
CCCn1c(-c2nnc(C(C)C)o2)cc2ccccc21,-,Clinical isolate,-,resazurin,-,MIC,16 µg/mL
CC(=O)N1C(=O)C2(Nc3ccccc3N2)c2ccccc21,-,H37Rv,-,BACTEC,-,MIC,≥12.8 µg/mL
Cc1cccc(NC(=O)c2cc3c(oc2=O)CC(C)(C)CC3=O)c1,-,Clinical isolate,-,resazurin,-,MIC,8 µg/mL
O=C(c1ccncc1)N(NCc1cccc(Cl)c1)C(=O)c1cnccn1,-,9 isolates (resistant),-,-,-,MIC,8–16 µg/mL
Oc1cccc2ccc(N/N=C/c3ccnc4c(O)cccc34)nc12,-,H37Rv,12.5 µg/mL,BACTEC,-,inhibition,-4%
CNC(=O)Nc1ccc(S(=O)(=O)Nc2cc(C)on2)cc1,21 d,H37Rv,-,broth dilution / absorbance,-,MIC100,32 µM
NC(=S)c1cncc(-n2cncn2)n1,-,Isoniazid-resistant,-,-,-,MIC,500 µg/mL
O=C(c1ccncc1)N(/N=C/c1ccc(Cl)cc1)C(=O)c1cnccn1,-,9 isolates (sensitive),-,-,-,MIC,0.5–2 µg/mL
CCOC(=O)C(C(=O)OCC)=S1c2ccccc2Sc2ccccc21,-,H37Rv,12.5 µg/mL,BACTEC,-,inhibition,6%
N#Cc1cncc(-n2cncn2)n1,-,SP 607,-,-,-,MIC,500 µg/mL
CO[C@H]1/C=C/O[C@@]2(C)Oc3c(C)c(O)c4c(O)c(c(/C=N/N5CCN(C)CC5)c(O)c4c3C2=O)NC(=O)/C(C)=C\C=C\[C@H](C)[C@H](O)[C@@H](C)[C@@H](O)[C@@H](C)[C@H](OC(C)=O)[C@@H]1C,-,G96V,-,-,-,MIC,0.01 µg/mL
CCCCSC1=C(C#N)C(=O)NC(C)S1,-,Clinical isolate,-,resazurin,-,MIC,16 µg/mL
Cc1ccc2c(c1)c(N=NC(=S)Nc1ccccc1Br)c(O)n2C,-,H37Rv,-,broth dilution / resazurin,-,EC90,>100 µg/mL
CC(=O)/C(N=Nc1ccc(C(=O)N/N=C/c2ccc([N+](=O)[O-])o2)cc1)=C(\C)O,-,H37Rv,-,-,-,EC50,<12.5 µg/mL
CCCOC(=O)CSc1nc(N)c2c3c(sc2n1)CC(C(C)(C)C)CC3,-,H37Rv,-,MTT / visual reading,-,MIC,1.5 µg/mL
Nc1ccc(C(=O)N/N=C/c2ccccc2F)cc1,-,H37Rv,-,-,-,EC50,>12.5 µg/mL
Cn1c(O)c(N=NC(=S)Nc2ccc(Br)cc2)c2cc(OC(F)(F)F)ccc21,-,H37Rv,-,broth dilution / resazurin,-,EC90,>100 µg/mL
CC(=O)NCC1CN(c2ccc(C(C)=O)cc2)C(=O)O1,-,H37Rv,-,-,-,MIC,0.97 µg/mL
CCOC(=O)CC1=NN(C(=O)c2ccccc2)C(=NC(=O)c2ccccc2)SC1,-,H37Rv,6.25 µg/mL,resazurin,-,inhibition,52%
CC1COc2c(N3CCN(C)CC3)c(F)cc3c(=O)c(C(=O)O)cn1c23,-,H37Rv (ATCC 25618),-,broth dilution,-,MIC,1 µg/mL
CC1CCCC2(C1)SCC(=O)N2NC(=O)Cc1csc2nc(-c3ccccc3)cn12.O,-,H37Rv,6.25 µg/mL,-,-,inhibition,65%
O=C(c1ccncc1)N(/N=C/c1cccc([N+](=O)[O-])c1)C(=O)c1cnccn1,-,9 isolates (resistant),-,-,-,MIC,>16 µg/mL
CCCNC(=O)Nc1ccc(S(=O)(=O)Nc2cc(C)on2)cc1,21 d,H37Rv,-,broth dilution / absorbance,-,MIC100,>1000 µM
CC(=O)N1N=C2C3CCN(CC3)C2C1c1cccc2ccccc12,-,18b,-,resazurin,-,MIC,16 µg/mL
CCOC(=O)c1ccc(N=NC2Sc3nc4ccccc4n3C2=O)cc1,-,H37Rv,-,BACTEC,-,MIC,≥12.5 µg/mL
CNc1nc(N2CCCC2)nc(-n2cnc(SCC(=O)OC)n2)n1,-,18b,-,resazurin,-,MIC,16 µg/mL
CC(C)(C)C1CCc2c(sc3nc(SCc4ncco4)nc(N)c23)C1,-,H37Rv,-,MTT / visual reading,-,MIC,25 µg/mL
O=C(CNc1ccc(Cl)cc1)Sc1nnc(-c2ccncc2)o1,-,H37Rv (ATCC 27294),0.1735 µM,BACTEC / radiometric,-,inhibition,28%
C=C(C)C1CCc2c(C)cc(O)c(C(=O)O)c2C1,-,H37Rv,-,BACTEC,-,MIC,≥12.5 µg/mL
Cc1ccc(C2=Nn3c(nnc3C(C)C)SC2)cc1,-,18b,-,resazurin,-,MIC,8 µg/mL
O=C(CNc1ccc([N+](=O)[O-])cc1)Sc1nnc(-c2ccncc2)o1,-,H37Rv (ATCC 27294),-,broth dilution / resazurin,-,MIC99,6 µg/mL
COc1ccc2c(C)cc(N/N=C(\C)c3ccccn3)nc2c1,-,H37Rv,-,BACTEC,-,MIC bound,>12.5 µg/mL
O=C(O)c1cn(C2CC2)c2cc(N3CCNCC3)c(F)cc2c1=O,-,30 isolates/HIV+,-,-,-,MIC90,>16 µg/mL
NNC(=O)c1ccncc1,-,Beijing,-,broth dilution,-,MIC,0.06 µg/mL
C=C1C(=O)OC2CC(C)C3C4OC4C(O)C3(C)C(O)C12,-,H37Rv,-,BACTEC,-,MIC bound,>12.5 µg/mL
COc1ccc(/C(O)=C/c2nc3cc(Cl)ccc3oc2=O)cc1,-,18b,-,resazurin,-,MIC,4 µg/mL
Cc1cccc(NCC(=O)Sc2nnc(-c3ccncc3)o2)c1,-,H37Rv (ATCC 27294),0.1138 µM,BACTEC / radiometric,-,inhibition,62%
S=C(NCN1CCOCC1)c1cncc(-n2ccnc2)n1,-,Isoniazid-resistant,-,-,-,MIC,500 µg/mL
O=C(Cc1csc2nc(-c3ccc(Cl)cc3)cn12)NN1C(=O)CSC12CCCCC2,-,H37Rv,6.25 µg/mL,-,-,inhibition,0%
CC1=NN(C(=O)c2ccncc2)C(=O)C1N=Nc1ccc(S(=O)(=O)Nc2ncccn2)cc1,-,H37Rv,-,BACTEC,-,MIC bound,>12.8 µg/mL
CC[C@H]1OC(=O)[C@H](C)[C@@H](O[C@H]2C[C@@](C)(OC)[C@@H](O)[C@H](C)O2)[C@H](C)[C@@H](O[C@@H]2O[C@H](C)C[C@H](N(C)C)[C@H]2O)[C@](C)(O)C[C@@H](C)CN(C)[C@H](C)[C@@H](O)[C@]1(C)O,-,30 isolates/HIV+,-,-,-,MIC90,>8 µg/mL
CCCCCNC(=O)Nc1ccc(S(=O)(=O)Nc2cc(C)on2)cc1,21 d,H37Rv,-,broth dilution / absorbance,-,MIC100,500 µM
CC(=O)/C(N=Nc1ccc(C(=O)N/N=C/C=C/c2ccc(N(C)C)cc2)cc1)=C(\C)O,-,H37Rv,-,-,-,EC50,<12.5 µg/mL
S=c1nc[nH][nH]1,-,My 331/88,-,-,-,MIC,1000 µM
CCCCNC(=S)N=Nc1c(O)n(C)c2ccc(C)cc12,-,H37Rv,-,broth dilution / resazurin,-,EC90,>100 µg/mL
COC(=O)c1cn(-c2nccs2)nn1,-,H37Rv,6.25 µg/mL,-,-,inhibition,1%
CCCCNC(=O)Nc1ccc(S(=O)(=O)Nc2cc(C)on2)cc1,14 d,H37Rv,-,broth dilution / absorbance,-,MIC100,62.5 µM
C[C@H]1COc2c(N3CCN(C)CC3)c(F)cc3c(=O)c(C(=O)O)cn1c23,-,099-3,-,-,-,MIC,0.5 µg/mL
Nc1c(N2CCOCC2)c(=O)nc2[nH]/c(=C/c3ccccc3O)c(=O)n12,-,-,0.5 µM,BACTEC,-,inhibition,0%
CC1CCC2(CC1)SC(C)C(=O)N2NC(=O)Cc1csc2nc(-c3ccccc3)cn12,-,H37Rv,6.25 µg/mL,-,VERO,inhibition,99%
O=C(c1ccncc1)N(/N=C/c1cccc(Cl)c1)C(=O)c1cnccn1,-,H37Rv,-,-,-,MIC,0.5 µg/mL
Cn1cnnc1SCc1ccc(C#N)cc1,-,My 331/88,-,-,-,MIC,>1000 µM
O=c1c2ccccc2c2ccccc2c(=O)n1-c1ccc2c(c1)Cc1cc(-n3c(=O)c4ccccc4c4ccccc4c3=O)ccc1-2,-,H37Rv,12.5 µg/mL,BACTEC,-,inhibition,8%
Cc1csc(C(C)(O)c2nnc(Nc3ncn(Cc4c(F)cccc4F)n3)s2)n1,-,WILD TYPE,-,-,-,MIC,1.56 µM
CC1SC2(CCCCC2)N(NC(=O)Cc2csc3nc(-c4ccccc4)cn23)C1=O.O.O,-,H37Rv,-,-,VERO,MIC,6.25 µg/mL
COC(=O)c1cn(-c2ccc(-c3ccccc3)nn2)nn1,-,H37Rv,6.25 µg/mL,-,-,inhibition,99%
CCOc1ccc2ccccc2c1OP(=O)(OCC)OCC,-,H37Rv,6.25 µg/mL,resazurin,-,inhibition,0%
NC(=O)c1cnccn1,7 d,TB189,800 µg/mL,-,-,inhibition,99.9%
O=C(OCC1OC(O)(COC(=O)c2ccccc2)C(OC(=O)c2ccccc2)C1OC(=O)c1ccccc1)c1ccccc1,-,H37Rv,-,BACTEC,-,MIC bound,>12.5 µg/mL
Cc1ccccc1NCC(=O)Sc1nnc(-c2ccncc2)o1,-,H37Rv (ATCC 27294),0.113 µM,BACTEC / radiometric,-,inhibition,63%
O=C1CC2COc3ccccc3C2=NN1c1ccccc1,-,H37Rv,-,BACTEC,-,MIC bound,>12.5 µg/mL
O=C([C@@H](O)CO)N1CC=C(c2c(F)cc(N3C[C@H](COc4ccon4)OC3=O)cc2F)CC1,-,H37Rv (ATCC 27294),-,broth dilution,-,EC50,1.24 µg/mL

A second listing of 5 rows from above:

| compound | conditions | strain or isolate | tested at | method | cells | read-out | value |
|---|---|---|---|---|---|---|---|
| Nc1n[nH]c(=O)c2cccnc12 | - | H37Rv | - | BACTEC | - | MIC | ≥12.5 µg/mL |
| Cn1cnnc1SCc1cccc(Br)c1 | - | My 331/88 | - | - | - | MIC | 1000 µM |
| CCOC(=O)C(C(=O)OCC)=S1c2ccccc2Sc2ccccc21 | - | H37Rv | 12.5 µg/mL | BACTEC | - | inhibition | 6% |
| CC1=NN(C(=O)c2ccncc2)C(=O)C1N=Nc1ccc(S(=O)(=O)Nc2ncccn2)cc1 | - | H37Rv | - | BACTEC | - | MIC bound | >12.8 µg/mL |
| O=c1c2ccccc2c2ccccc2c(=O)n1-c1ccc2c(c1)Cc1cc(-n3c(=O)c4ccccc4c4ccccc4c3=O)ccc1-2 | - | H37Rv | 12.5 µg/mL | BACTEC | - | inhibition | 8% |